## Sequence variants of PSTVd stem 26 after infection

Source: Wu et al. 2024 (doi:10.1371/journal.ppat.1012142), supplementary data.

PSTVd intermediate strain, stem 26: wild type AGGGUACCCU, pool pattern AGGGUNNCNN; upper and lower strand joined, each 5' to 3', the first 5 letters being the upper strand.

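A pool of all variants was put on leaves of three Nicotiana benthamiana plants. Samples came from the inoculated region at 5 days, the leaf margin at 10 and upper systemic leaves at 12.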

Numbers give reads per thousand; 0 = not seen among the reads, higher = more abundant. Each value is the mean of three plants. "Pool" is the share in the plasmid pool used as inoculum, on the same scale. The inoculated region was read from the minus strand, the other sites from the plus strand. Wild type was 44.9 per thousand in the pool and the most common sequence in every sample (inoculated region 297, 323, 447; leaf margin 793, 829, 846; systemic leaves 974, 853, 877). Sequences that differ at fixed positions probably stem from PCR or sequencing errors, and defective variants can be carried along by functional ones. With 23,251-70,159 reads a sample, very low values are single reads.

For AGGGUCUCAG (pool 2.91) the result was inoculated region 0.741; leaf margin 0.00992; systemic leaves 0.
For AGGGUGCUCU (pool 0.0329) the result was inoculated region 1.47; leaf margin 0.371; systemic leaves 0.
For AGGUUAACUA (pool 0.0329) the result was inoculated region 0; leaf margin 0; systemic leaves 0.
For AGGGUGGCCU (pool 3.55) the result was inoculated region 0.898; leaf margin 0.00742; systemic leaves 0.00475.
For AGGGUGAUCC (pool 0.0329) the result was inoculated region 1.60; leaf margin 1.38; systemic leaves 0.726.
For AGGGUCACGA (pool 2.89) the result was inoculated region 0.875; leaf margin 0; systemic leaves 0.
For AGGGUGACCG (pool 2.60) the result was inoculated region 0.869; leaf margin 0.0198; systemic leaves 0.
For AGGGUGACUA (pool 3.50) the result was inoculated region 2.68; leaf margin 0.644; systemic leaves 0.00551.
For AGGGUGGCUU (pool 3.54) the result was inoculated region 2.09; leaf margin 0.602; systemic leaves 0.303.
For AGGGUAUACU (pool 0.0329) the result was inoculated region 0; leaf margin 0; systemic leaves 0.
For AGGGUUUCAC (pool 4.67) the result was inoculated region 3.98; leaf margin 0.852; systemic leaves 0.0110.
For AGGGUAGCCC (pool 5.30) the result was inoculated region 2.97; leaf margin 0.479; systemic leaves 0.0553.
For AGGGACUCAC (pool 0.0329) the result was inoculated region 0.00875; leaf margin 0; systemic leaves 0.
For AGGGUCUCUA (pool 3.42) the result was inoculated region 2.57; leaf margin 0.733; systemic leaves 0.00551.
For AGGGUGUGCG (pool 0.0493) the result was inoculated region 1.39; leaf margin 0.735; systemic leaves 0.
For AGGGUUGCUA (pool 5.89) the result was inoculated region 1.84; leaf margin 0.00742; systemic leaves 0.0285.
For AGGGUCCCAG (pool 2.91) the result was inoculated region 0.752; leaf margin 0.00992; systemic leaves 0.
For AGGGUCACGU (pool 4.52) the result was inoculated region 2.62; leaf margin 0; systemic leaves 0.143.
For AGGGAACCCU (pool 0.0329) the result was inoculated region 0.554; leaf margin 0.616; systemic leaves 0.656.
For AGGGUUUCCA (pool 7.12) the result was inoculated region 2.90; leaf margin 0.0261; systemic leaves 0.00623.
For AGGGUCAUCG (pool 0.0329) the result was inoculated region 0; leaf margin 0; systemic leaves 0.
For AGGGUGACUC (pool 2.81) the result was inoculated region 3.39; leaf margin 2.66; systemic leaves 1.53.
For AGGGUGCCCU (pool 3.73) the result was inoculated region 40.5; leaf margin 11.9; systemic leaves 4.51.
For AGGGUACCAU (pool 3.67) the result was inoculated region 2.70; leaf margin 2.55; systemic leaves 0.651.
For AGGGUCUCAU (pool 3.65) the result was inoculated region 1.38; leaf margin 0.0173; systemic leaves 0.
For AGGGAACCCG (pool 0.0329) the result was inoculated region 0.00788; leaf margin 0.00992; systemic leaves 0.00551.
For AGGGUAUCUG (pool 2.76) the result was inoculated region 2.31; leaf margin 0.602; systemic leaves 0.
For AGGGUCACCG (pool 3.64) the result was inoculated region 1.19; leaf margin 0.00992; systemic leaves 0.
For AGGGUCGGAC (pool 2.25) the result was inoculated region 1.35; leaf margin 1.06; systemic leaves 0.0165.
For AGGGUGUCCU (pool 3.75) the result was inoculated region 2.86; leaf margin 0.735; systemic leaves 2.51.
For AGGGUACCGG (pool 2.86) the result was inoculated region 0.876; leaf margin 0.00992; systemic leaves 0.00475.
For AGGGUGUCCG (pool 4.93) the result was inoculated region 3.58; leaf margin 0.673; systemic leaves 0.270.
For AGGGUAACUC (pool 4.61) the result was inoculated region 3.20; leaf margin 0.681; systemic leaves 0.292.

Excerpt, the final 2 entries:

sequence,pool,inoculated region,leaf margin,systemic leaves
AGGGUGUCCG,4.93,3.58,0.673,0.270
AGGGUAACUC,4.61,3.20,0.681,0.292